Molecular target: T1, Biotin--[acetyl-CoA-carboxylase] ligase (Mycobacterium tuberculosis (strain ATCC 25618 / H37Rv)) (UniProt I6YFP0)
T1 sequence (whole entry): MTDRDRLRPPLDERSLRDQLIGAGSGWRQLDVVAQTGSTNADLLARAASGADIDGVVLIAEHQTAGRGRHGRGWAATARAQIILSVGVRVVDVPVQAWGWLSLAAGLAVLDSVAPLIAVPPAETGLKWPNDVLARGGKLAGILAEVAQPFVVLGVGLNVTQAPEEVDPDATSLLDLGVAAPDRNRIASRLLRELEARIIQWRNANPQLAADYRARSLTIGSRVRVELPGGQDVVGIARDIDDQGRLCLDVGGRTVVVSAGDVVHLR

`[N-]=[N+]=N[C@@H]1[C@H](O)[C@@H](CNS(=O)(=O)NC(=O)CCCC[C@@H]2SC[C@@H]3NC(=O)N[C@@H]32)O[C@H]1n1cnc2c(N)ncnc21` gave a ΔTm of 13 °C.
With `Nc1ncnc2c1ncn2[C@@H]1O[C@H](CNS(=O)(=O)NC(=O)CCCC[C@@H]2SC[C@@H]3NC(=O)N[C@@H]32)[C@@H](O)[C@H]1N` the ΔTm was 19.2 °C.
Compound `Nc1ncnc2c1ncn2[C@H]1C=C[C@@H](CNS(=O)(=O)NC(=O)CCCC[C@@H]2SC[C@@H]3NC(=O)N[C@@H]32)C1` has a ΔTm of 12.5 °C.
Work on `CCN(CC)CC.Nc1ncnc2c1ncn2[C@@H]1O[C@H](COS(=O)(=O)NC(=O)CCCC[C@@H]2SC[C@@H]3NC(=O)N[C@@H]32)[C@@H](O)[C@@H]1F` yielded a ΔTm of 17.7 °C.
`[N-]=[N+]=N[C@H]1[C@H](O)[C@@H](CNS(=O)(=O)NC(=O)CCCC[C@@H]2SC[C@@H]3NC(=O)N[C@@H]32)O[C@H]1n1cnc2c(N)ncnc21` was tested, and the ΔTm was 17 °C.
`C[C@@]1(O)[C@H](O)[C@@H](COS(=O)(=O)NC(=O)CCCC[C@@H]2SC[C@@H]3NC(=O)N[C@@H]32)O[C@H]1n1cnc2c(N)ncnc21` was tested, and the ΔTm was 14.2 °C.
`Nc1ncnc2c1ncn2[C@@H]1O[C@H](CNS(=O)(=O)NC(=O)CCCC[C@@H]2SC[C@@H]3NC(=O)N[C@@H]32)C[C@H]1O` gave a ΔTm of 15 °C.
`Nc1ncnc2c1ncn2[C@@H]1C[C@H](CNS(=O)(=O)NC(=O)CCCC[C@@H]2SC[C@@H]3NC(=O)N[C@@H]32)[C@@H](O)[C@H]1O` showed a ΔTm of 12.2 °C.
